# PubChem BioAssay AID1259414 | Drosophila RNAi Screening Center, 2018
# Test: 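Host factors increasing or decreasing Wolbachia levels in cultured fly cells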 (primary screen)
# Cells: Drosophila JW18 cells infected with Wolbachia
# Knock-down reagent: long dsRNA against Drosophila genes, 0.25 µg dsRNA per well of a 384-well plate
# Time to read-out: 5 days
# Conditions: cells persistently infected with Wolbachia before knock-down; no added drug
# Measurement: 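Imaged fluorescence in situ signal for Wolbachia 23S rRNA per DAPI-counted host cell, given as a robust z-score within each plate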
# Scale: Wolbachia per cell robust z: higher = more Wolbachia per host cell than the plate typical
# Active means: 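Active if absolute robust z reaches 1.5 in two or more of three replicates, leaving out multi- or no-target dsRNAs, genes unexpressed in JW18 and A1 wells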
# The deposit covers about 24,000 reagents; below is a random part of those with a known target gene and a result. Over the whole deposit, about 1,210 (5%) were called active. 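Inactive calls also include excluded dsRNAs with several or no targets, genes unexpressed in JW18, and well A1, regardless of score.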 A plus sign joins genes that one reagent is predicted to hit.
The first 7 entries, to show the layout:
Target gene,amplicon,"Wolbachia per cell robust z, rep 1","Wolbachia per cell robust z, rep 2","Wolbachia per cell robust z, rep 3",Call
Arc42,DRSC14340,0.253,1.46,-0.672,inactive
Arc42,DRSC15627,-3.96,0.955,-0.602,inactive
Fas3,DRSC03326,-0.264,0.574,-0.146,inactive
Fas3,DRSC22776,-1.1,-1.75,0.239,inactive
Fas3,DRSC28665,0.595,-0.693,-0.345,inactive
CG3198,DRSC18292,0.655,0.962,1.36,inactive
CG3198,DRSC24615,-0.105,1.04,1.2,inactive

Main list, from the first entry:
Target gene,amplicon,"Wolbachia per cell robust z, rep 1","Wolbachia per cell robust z, rep 2","Wolbachia per cell robust z, rep 3",Call
Arc42,DRSC14340,0.253,1.46,-0.672,inactive
Arc42,DRSC15627,-3.96,0.955,-0.602,inactive
Fas3,DRSC03326,-0.264,0.574,-0.146,inactive
Fas3,DRSC22776,-1.1,-1.75,0.239,inactive
Fas3,DRSC28665,0.595,-0.693,-0.345,inactive
CG3198,DRSC18292,0.655,0.962,1.36,inactive
CG3198,DRSC24615,-0.105,1.04,1.2,inactive
CG3198,DRSC38993,2.42,1.57,1.03,active
mthl10,DRSC08504,-2.84,-0.647,0.174,inactive
mthl10,DRSC08505,0.217,-3.64,-2.38,active
mthl10,DRSC39158,-2.82,0.635,-1.4,inactive
Parg,DRSC18696,0.441,0.21,0.457,inactive
GstD7,DRSC16688,-0.113,0.0234,0.99,inactive
GstD7,DRSC29907,-0.536,-0.384,-7.6,inactive
spt4,DRSC07696,-1.78,-2.06,-3.38,active
spt4,DRSC41571,-1.1,0.587,-0.628,inactive
eRF1,DRSC11779,0.656,0.845,0.801,inactive
eRF1,DRSC27974,-1.91,0.792,0.317,inactive
Srp14,DRSC15797,-0.486,-1.76,-0.554,inactive
atilla,DRSC02971,-0.662,-0.117,-0.346,inactive
atilla,DRSC27408,0.41,-0.515,-0.0453,inactive
nAChRalpha1,DRSC13664,1.03,0.174,0.709,inactive
nAChRalpha1,DRSC13670,0.447,0.487,0.594,inactive
nAChRalpha1,DRSC13672,0.811,-7.52,1.32,inactive
nAChRalpha1,DRSC17008,-1.59,0.236,1.65,inactive
CG14377 + CG14374,DRSC26405,1.69,-0.0379,-0.33,inactive
CG46441,DRSC15561,0.419,0.792,-0.228,inactive
CG46441,DRSC24659,1.15,0.557,-0.261,inactive
CG12783,DRSC14538,0.0209,0.805,0.165,inactive
CG3894,DRSC01762,1.07,-0.382,-0.303,inactive
CG3894,DRSC04012,-1.4,-0.709,-0.704,inactive
CG3894,DRSC04429,-4.41,-3.63,-0.152,active
AOX1,DRSC15339,-0.134,-0.749,-0.741,inactive
AOX1,DRSC29234,0.4,0.138,-1.83,inactive
trol,DRSC18613,-1.18,-0.591,0.354,inactive
trol,DRSC18814,-0.524,0.305,0.33,inactive
trol,DRSC39142,0.787,0.785,0.67,inactive
trol,DRSC40658,-0.0661,-1.88,-0.0832,inactive
Oct-TyrR,DRSC11883,0.992,0.767,-0.808,inactive
CG15047,DRSC19623,0.0407,0.524,0.344,inactive
CG15047,DRSC21443,-0.184,0.204,0.903,inactive
CG15047,DRSC27296,-0.364,-1.6,-0.164,inactive
msk,DRSC11340,-6.33,1.11,0.168,inactive
msk,DRSC23929,0.229,0.788,-1.85,inactive
CG12379 + CG8191,DRSC19451,-0.12,-0.832,0.137,inactive
ninaG,DRSC16102,0.507,-3.96,-0.399,inactive
MED21,DRSC37928,0.331,0.558,-0.616,inactive
Ptp52F,DRSC06717,0.598,-0.205,-0.442,inactive
Sdhaf3,DRSC15020,0.531,0.386,-0.186,inactive
twz,DRSC04069,1.01,0.383,0.765,inactive
twz,DRSC25832,0.738,-1.21,-0.337,inactive
Vav,DRSC20384,-5.38,0.0132,0.477,inactive
Vav,DRSC24485,0.242,-1.16,-2.06,inactive
CG17124,DRSC02580,-0.985,0.354,-6.69,inactive
CG17124,DRSC29139,0.167,-2.61,-1.07,inactive
CstF64,DRSC16616,-6.48,-0.768,-0.355,inactive
CstF64,DRSC29486,0.513,0.792,1.22,inactive
CG10064,DRSC09689,0.268,-1.57,0.322,inactive
mRpL34,DRSC38732,-0.493,0.212,-0.00763,inactive
Cpr65Ea,DRSC11027,-6.7,0.713,-0.045,inactive
Cpr65Ea,DRSC25692,-0.531,0.518,0.668,inactive
lncRNA:CR42651,DRSC41377,-0.75,0.306,-2.83,inactive
exp,DRSC06313,0.48,1.2,0.636,inactive
exp,DRSC25004,-1.95,-1.26,-2.92,active
CG34354,DRSC15645,-3.12,1.06,-1.82,inactive
CG34354,DRSC23054,0.019,0.298,0.344,inactive
CG8136,DRSC16385,0.753,0.0057,-0.772,inactive
CG8136,DRSC28135,-0.378,-1.11,-0.903,inactive
